For some assays here: Where a protein sequence is shown, tags need not be part of it. For some assays here: The exact form of at least one protein or probe is not confirmed.
What was measured:
[1] = target: TetR (alternative sigma factor) (Clostridium tetani CN655) (UniProt Q899V5); assay: EMSA; settings: recombinant protein; protein details: N-terminal His6 (pET28a); label: 5'-biotin on both primers; probe letters rebuilt from the primers and the genome
[2] = target: T1, CodY (Clostridium tetani CN655) (UniProt Q895L3); assay: EMSA; settings: recombinant protein; residues 1-258; protein details: N-terminal His6 (pET28a); label: 5'-biotin on both primers; probe letters rebuilt from the primers and the genome
T1 sequence (looked up): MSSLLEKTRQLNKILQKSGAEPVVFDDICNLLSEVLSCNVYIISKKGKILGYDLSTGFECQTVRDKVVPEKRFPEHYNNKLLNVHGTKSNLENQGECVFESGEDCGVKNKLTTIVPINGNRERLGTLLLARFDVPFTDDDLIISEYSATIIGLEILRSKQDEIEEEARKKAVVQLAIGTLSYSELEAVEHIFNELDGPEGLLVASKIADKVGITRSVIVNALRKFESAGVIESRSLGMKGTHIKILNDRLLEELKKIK

Sequence: GGTTTTAGCATTAAAAAAATTAGAACCTATAGTAAATAAATTAATTAATATATAGTTTTTATAATTTAATTATGAATAATATTCTTAAGATAAAAAGTAAATTTTTAAAAATTTAAATTTTCAGTTTACAAAAAATAACCTGATTATGTTATATGTAATTGTAAAAAACATATAAAAAATCAGAAAAATTTAGGAGGTATATTATTAATGGATTAAATAATAATTTTTTAATTTACTTTTGATTAATAAATATTAAATGTTTATTTTAATTAGGAGATGATACGTATGCCAATAACCATAAATAATTTTAGATATAGTGATCCTGTTAATAATGATACAATTATTATGATGGAGCCACC (double strand) [Ptent]
- binding result [1]: binds
- binding result [2]: binds

From paper PMC7290440
